Test results from publication PMC9289529, “Varicella‐Zoster virus ORF9 is an antagonist of the DNA sensor cGAS”.
For some assays here: A weaker result is weaker than the reference pair of the same experiment. Where a protein sequence is shown, tags need not be part of it. For some assays here: For at least one entry, the source does not settle the construct or the ends of the probe. For some assays here: At least one result comes from cells or an extract, where the contact may be indirect.

Key:
[1] = biological target: T1, ORF9-N (Varicella-zoster virus) (UniProt Q4JQW6); test: phase separation microscopy; settings: no cGAS, much reduced droplets; recombinant protein; residues 1-244; protein details: 6xHis-SUMO removed by SENP2
T1 sequence (looked up): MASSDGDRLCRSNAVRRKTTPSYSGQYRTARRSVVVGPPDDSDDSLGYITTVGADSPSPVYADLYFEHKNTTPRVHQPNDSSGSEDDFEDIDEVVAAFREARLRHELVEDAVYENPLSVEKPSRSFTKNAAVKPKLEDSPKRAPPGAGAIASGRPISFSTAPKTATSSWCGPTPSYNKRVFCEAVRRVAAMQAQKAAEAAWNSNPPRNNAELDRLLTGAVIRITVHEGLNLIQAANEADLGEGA

[2] = biological target: T2, ORF9 (FLAG-ORF9), HEK293T (Varicella-zoster virus) (UniProt Q4JQW6); test: pull-down; settings: HEK293T lysate; 3' TEG-biotin on forward strand; Binding buffers for pull-down; phase separation tested at varied NaCl/KCl up to 300 mM or more; protein in a lysate after overexpression; residues 1-302; protein details: N-terminal FLAG; label: biotin
T2 sequence (looked up): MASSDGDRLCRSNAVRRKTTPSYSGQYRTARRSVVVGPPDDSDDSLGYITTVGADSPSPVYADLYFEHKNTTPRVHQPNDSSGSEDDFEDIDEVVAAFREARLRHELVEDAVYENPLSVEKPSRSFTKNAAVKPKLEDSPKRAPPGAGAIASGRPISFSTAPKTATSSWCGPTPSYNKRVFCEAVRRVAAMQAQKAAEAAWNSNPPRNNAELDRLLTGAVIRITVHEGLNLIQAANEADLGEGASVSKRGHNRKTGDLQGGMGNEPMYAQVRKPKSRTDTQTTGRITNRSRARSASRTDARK

Sequence	binding result [1]	binding result [2]
ACATCTAGTACATGTCTAGTCAGTATCTAGTGATTATCTAGACATACATCTAGTACATGTCTAGTCAGTATCTAGTGATTATCTAGACATGGACTCATCC (double strand) [100 bp ISD]	binds more weakly	–
CCATCAGAAAGAGGTTTAATATTTTTGTGAGACCATCGAAGAGAGAAAGAGATAAAACTTTTTTACGACT (double strand) [VACV-70mer-Biotin]	–	binds
